One experiment has as its system molluscs (Patella). The note with it: ref [2]; cited from earlier work.
For a further experiment, the system named is insects (Sarcophaga). Conditions: ref [2]; cited from earlier work.
The subject of the next experiment is crustaceans (Porcellio). Conditions: ref [2]; cited from earlier work.
In the next experiment the test system is human CaV3.1. The experiment can be described thus: Whole-cell patch-clamp (QPatch 16 X), CaV3.1. (In general: In patch-clamp work, channel activity is measured electrically.)
The subject of a further experiment is rat brain NaVs. Conditions: cited from earlier work.
The test system of another experiment is snails. Conditions: ref [1]; cited from earlier work.
Another experiment relates to lobsters. Conditions: ref [1]; cited from earlier work.
Experiment [1] concerns human NaV channels endogenously expressed in SH-SY5Y cells (NaV1.2 and NaV1.7). The experiment can be described thus: Sodium channel FLIPR assay, SH-SY5Y cells. Conditions: 5 µM, FLIPR red membrane potential dye, veratridine 40–50 µM agonist, pH 7.4, n = 3, p = 0.37.
In another experiment the test system is fish (Cambusia). The note with it: ref [2]; cited from earlier work.
A further experiment has as its system mouse NaV1.7. The experiment can be described thus: Sodium channel FLIPR assay, transiently transfected NaV1.7 HEK293T cells. Conditions: 10 µM, FLIPR red membrane potential dye, veratridine 40–50 µM agonist, pH 7.4, n = 2, p = 0.29.
The test system of the next experiment is mammalian NaV channels. Conditions: ref [4]; cited from earlier work.
The target in the next experiment is human CaV3.2 (Homo sapiens, UniProt O95180). The experiment can be described thus: Whole-cell patch-clamp (QPatch 16 X), CaV3.2.
The next experiment concerns human CaV3.3. The experiment can be described thus: Whole-cell patch-clamp (QPatch 16 X), CaV3.3. The note with it: n = 6, 10 µM in representative trace, Vmax −10 mV, holding −90 mV.

By UniProt entry, the sequences of proteins in these tests, tags left out. Where a name states a change or a piece, a line headed by the entry shows the natural chain unless it says otherwise.
UniProt O95180: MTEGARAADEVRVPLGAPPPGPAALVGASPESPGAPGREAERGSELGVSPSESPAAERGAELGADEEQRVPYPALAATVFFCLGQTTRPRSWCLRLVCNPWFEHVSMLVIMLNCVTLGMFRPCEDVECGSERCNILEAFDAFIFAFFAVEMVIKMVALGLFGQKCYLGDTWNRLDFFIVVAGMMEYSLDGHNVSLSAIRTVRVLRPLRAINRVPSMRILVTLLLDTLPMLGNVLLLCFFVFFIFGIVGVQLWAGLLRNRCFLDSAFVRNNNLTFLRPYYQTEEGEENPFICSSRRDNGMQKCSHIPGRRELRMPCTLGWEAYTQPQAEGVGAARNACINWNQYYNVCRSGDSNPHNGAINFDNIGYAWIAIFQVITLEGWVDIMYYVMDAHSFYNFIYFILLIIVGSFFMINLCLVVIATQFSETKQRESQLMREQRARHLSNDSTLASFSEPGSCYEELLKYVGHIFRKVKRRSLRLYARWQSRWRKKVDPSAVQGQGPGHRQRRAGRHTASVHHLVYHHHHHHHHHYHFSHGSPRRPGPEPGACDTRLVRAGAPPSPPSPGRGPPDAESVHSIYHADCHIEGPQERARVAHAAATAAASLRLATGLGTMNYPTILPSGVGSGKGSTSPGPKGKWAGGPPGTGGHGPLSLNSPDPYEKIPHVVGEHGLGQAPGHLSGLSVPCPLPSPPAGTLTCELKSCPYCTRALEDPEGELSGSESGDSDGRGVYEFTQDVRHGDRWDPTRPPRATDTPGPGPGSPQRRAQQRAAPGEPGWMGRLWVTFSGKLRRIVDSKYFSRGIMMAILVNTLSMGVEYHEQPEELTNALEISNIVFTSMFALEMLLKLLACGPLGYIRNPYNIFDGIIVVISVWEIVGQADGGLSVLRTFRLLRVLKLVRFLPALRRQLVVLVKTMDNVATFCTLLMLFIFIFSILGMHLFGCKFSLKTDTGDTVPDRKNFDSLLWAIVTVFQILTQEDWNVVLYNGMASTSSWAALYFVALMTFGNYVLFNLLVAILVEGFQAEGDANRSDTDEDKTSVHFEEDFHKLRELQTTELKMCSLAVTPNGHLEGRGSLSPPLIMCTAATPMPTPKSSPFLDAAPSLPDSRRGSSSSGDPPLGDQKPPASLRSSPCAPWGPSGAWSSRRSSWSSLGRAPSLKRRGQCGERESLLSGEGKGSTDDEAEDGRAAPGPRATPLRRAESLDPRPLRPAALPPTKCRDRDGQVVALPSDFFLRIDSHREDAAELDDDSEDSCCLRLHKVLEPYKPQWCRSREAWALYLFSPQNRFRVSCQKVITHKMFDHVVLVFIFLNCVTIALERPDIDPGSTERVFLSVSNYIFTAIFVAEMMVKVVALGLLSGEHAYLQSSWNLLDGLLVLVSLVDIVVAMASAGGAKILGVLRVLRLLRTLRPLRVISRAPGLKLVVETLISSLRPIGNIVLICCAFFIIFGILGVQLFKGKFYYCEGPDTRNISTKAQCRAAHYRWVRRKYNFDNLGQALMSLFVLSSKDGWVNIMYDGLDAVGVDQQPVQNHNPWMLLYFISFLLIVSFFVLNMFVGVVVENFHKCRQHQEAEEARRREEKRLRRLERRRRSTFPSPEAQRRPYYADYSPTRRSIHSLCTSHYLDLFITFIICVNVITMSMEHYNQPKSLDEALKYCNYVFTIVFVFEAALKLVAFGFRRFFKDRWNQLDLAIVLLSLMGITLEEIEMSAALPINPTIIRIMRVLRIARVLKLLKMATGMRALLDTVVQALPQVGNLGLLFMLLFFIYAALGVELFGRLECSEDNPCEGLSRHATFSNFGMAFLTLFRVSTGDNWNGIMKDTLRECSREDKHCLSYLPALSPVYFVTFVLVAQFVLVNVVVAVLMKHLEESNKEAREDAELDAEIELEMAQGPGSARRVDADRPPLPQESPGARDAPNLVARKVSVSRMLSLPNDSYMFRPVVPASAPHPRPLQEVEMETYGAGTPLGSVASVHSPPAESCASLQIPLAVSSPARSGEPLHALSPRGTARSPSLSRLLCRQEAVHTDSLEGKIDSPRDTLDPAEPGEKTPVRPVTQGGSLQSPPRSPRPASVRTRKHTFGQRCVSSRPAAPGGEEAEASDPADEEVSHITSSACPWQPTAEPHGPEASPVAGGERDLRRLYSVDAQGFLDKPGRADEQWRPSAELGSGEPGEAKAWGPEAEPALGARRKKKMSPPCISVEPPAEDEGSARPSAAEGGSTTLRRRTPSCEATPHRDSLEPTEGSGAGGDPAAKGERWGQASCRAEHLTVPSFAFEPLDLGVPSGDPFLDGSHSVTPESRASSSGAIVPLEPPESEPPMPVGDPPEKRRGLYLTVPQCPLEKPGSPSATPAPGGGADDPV

“Also recorded” adds a separate entry of the source.

For `CC[C@H](C)[C@@H]1NC(=O)[C@@H]2CSSC[C@@H]3NC(=O)[C@H](CCSC)NC(=O)[C@H](CCC(=O)O)NC(=O)CNC(=O)[C@H](CO)NC(=O)[C@H](CCC(N)=O)NC(=O)[C@H](CCCCN)NC(=O)[C@@H](NC(=O)[C@@H](N)Cc4c[nH]c5ccccc45)CSSC[C@H](NC(=O)[C@H](CSSC[C@@H](C(=O)N[C@H](C(=O)O)[C@@H](C)O)NC(=O)[C@H](C(C)C)NC(=O)[C@H](CC(C)C)NC(=O)[C@H](C(C)C)NC1=O)NC(=O)[C@H](CC(N)=O)NC(=O)[C@H](CCC(N)=O)NC(=O)[C@H](CC(=O)O)NC(=O)[C@H](CC(C)C)NC(=O)[C@H](CC(C)C)NC(=O)[C@H](CC(N)=O)NC3=O)C(=O)N[C@@H](CC(=O)O)C(=O)NCC(=O)N[C@@H](Cc1ccc(O)cc1)C(=O)N2`, the “paralytic effect in molluscs (Patella)” value in the experiment on molluscs (Patella) is on record as “paralytic effect”. The “paralytic effect in insects (Sarcophaga)” value in the experiment with insects (Sarcophaga) is recorded as “insects (Sarcophaga)”. In addition, the “paralytic effect in crustaceans (Porcellio)” value in the experiment on crustaceans (Porcellio) was “crustaceans (Porcellio)”. Further, the “current enhancement, CaV3.1” value in the experiment with human CaV3.1 (1 µM, QPatch, Vmax at −25 mV, means ± SEM, n = 5, p = 0.04) was 10.0% ± 3.9%. Further, the “I–V relationship shift, CaV3.1” value with human CaV3.1 (1 µM, n = 5, p = 0.63) was “not accompanied by shifts in the I–V relationship”. In addition, the “effect on CaV3.1 current” value in the experiment with human CaV3.1 (QPatch, n = 5, 1.11 µM and 10 µM in representative traces) is recorded as “promoted the opening of CaV3.1; also recorded: enhances CaV3.1 current at higher concentrations; also recorded: activating activity on CaV3.1 at µM concentrations”. Moreover, in the experiment with rat brain NaVs (rat brain NaVs, ref [4]), the “functional effect on rat brain NaVs” value was “lack of functional effects on rat brain NaVs”. Further, the “binding to rat brain NaVs” value with rat brain NaVs (sites adjacent to the binding sites of CsTx and GPT, ref [4],[5],[6]) is “binds”. In addition, in the experiment with snails, the “convulsive-like activity in snails” value is recorded as “convulsive-like activity in snails”. For the same compound, in the experiment on lobsters, the “posture of lobsters following injection” value is given as “dominant posture”. The “effect on human NaV responses” value in [1] is “did not produce any detectable effect”. Also, the “paralytic effect in fish (Cambusia)” value in the experiment on fish (Cambusia) was “not in fish”. Also, the “effect on calcium influx in HEK cells transiently expressing mouse NaV1.7” value with mouse NaV1.7 is “failed to significantly modify calcium influx”. Besides, the “functional effect of binding to mammalian NaV channels” value in the experiment on mammalian NaV channels is “non-functional”. Moreover, the “I–V relationship shift, CaV3.2” value at human CaV3.2 (0.1 µM, n = 4, p = 0.21) is recorded as “did not shift the I–V relationship”. Besides, the “selectivity among CaV3.x” value on human CaV3.2 (CaV3.1, 3.2 and 3.3, QPatch) is recorded as “preferentially inhibits CaV3.2 current”. The “Hill coefficient (CaV3.2)” value at human CaV3.2 (QPatch, recombinant hCaV3.2, concentration response curve, means ± SEM, n = 5) was -1.01 ± 0.37. The “effect on CaV3.2 current” value at human CaV3.2 (high nanomolar concentrations, QPatch, n = 5) is “partially inhibited CaV3.2”. Also, the IC50 – broadly, the concentration needed to halve the response being measured – on human CaV3.2 (read-out: IC50 (CaV3.2), QPatch, recombinant hCaV3.2, HEK293, 200 ms steps to Vmax from −90 mV, means ± SEM, n = 5) was determined as 0.24 µM. Further, in the experiment on human CaV3.3, the “effect on CaV3.3 current” value is recorded as “little effect”.

These data come from paper PMC7401249 (Marine Drugs, 2020).
